From publication PMC9392796, “A mannose-sensing AraC-type transcriptional activator regulates cell–cell aggregation of Vibrio cholerae” (NPJ Biofilms and Microbiomes, 2022)

Legend:
[1] = target: ManR (VC1825) (Vibrio cholerae N16961) (UniProt Q9KR22); assay: EMSA; conditions: recombinant protein, probe letters rebuilt from the primers and the genome
CRP = CRP (UniProt O34015); assay: EMSA; conditions: 0.2 mM cAMP; recombinant protein; probe letters rebuilt from the primers and the genome

“ATCAAATATCATATGTAAACCCTCACTTCGTCATCGCACTTTTATTAACGTCAGATATACCCCGAATGCCATTGAGTCTCTTTGAGCAACATCACACTCAAGACAGAATGATACAATAATCCAGTTTTAACACCAATTCTCTAGCACAAACCTCCACCATGAATAACAACAAACATAATATAACTAAATGAAAATTAATGAGCTAAACCTACAATCATTACTTAAAATTGGCCTCACTACCCCAATAGACGCTACGAGATCTAAATCACACCAAACCAATAGAGTTACAATCCTCCAGTGAATGTTTTATTTCTGCACTAATAAGAAAAATAAAAAAATTAAAGAATAACTCTGACATAAAAATAAAATGTACAGAGGTCTCTATGATCAACCAATTGA (double strand) [399-bp manP probe (VC1825-manP intergenic region)]”: binds ([1]; two complexes, 0, 60, 120 ng ManR); binds (CRP).
“CGCAACAATTTTCATGGAAATCCCTCATTGTTATTTTTGCGGCGATAGTAACATAGCGCTTGGCAAATACTCCGTTTTCGGCCAAGACCCAGTTCACAGTTCAAATCGAATGTTACATTAATCCAGTTATTGCATCTTTTGTCCTGTGTCTTGAAAGAGTATCGCTCGTTACTCTAGCCACGCGCGTACGCGAGGCGCATCGGGATGGCAATGCCAATTCAAACAACAGTAAGGTAAAACAATTGTGGATATTACCCA (double strand) [VC1822-VC1823 intergenic probe]”: binds ([1]; one complex, 0-90 ng ManR).
“GTCAGATATACCCCGAATGCCATTGAGTCTCTTTGAGCAACATCACACTCAAGACAGAATGATACAATAATCCAGTTTTAACACCAATTCTCTAGCACAA (double strand) [100-bp probe 2]”: binds ([1]; 120 ng ManR).

The exact form of at least one protein or probe is not confirmed.
